{"source": "PubChem BioAssay AID504761 – Drosophila RNAi Screening Center, 2011", "purpose": "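Genome-wide fly cell screen for genes dengue virus requires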 (primary screen)", "cells": "D.Mel-2 cells from Drosophila", "reagent": "long dsRNA against Drosophila genes", "treatment": "infection with dengue virus type 2; dose and infection time not stated", "read-out": "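Per well on two replicate plates, imaging gave the percent of cells positive for viral envelope protein, ranked by infection, and a nuclear count of cells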", "scale": "infection score: higher = more virus-infected cells; cell count: higher = more cells in the well", "active means": "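Very low infection ranking in both replicate wells (chance probability at most 0.065), then a retest showing infection dropped 1.5-fold or more at p below 0.05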", "calls": "active = confirmed: knock-down lowers infection; inactive = not picked or not confirmed", "note": "The deposit covers about 22,000 reagents; shown is an unselected part of those that have a named target and a result. Of all reagents, 116 (0.52%) got an active call. 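Calls depend on retest data that are not deposited; infection was ranked per plate without normalising between plates; the unit of the infection score is not given.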 The raw values are shown without normalisation. Names joined by + are all predicted targets of the reagent. Further read-outs or replicates are left out here. Not given: the amount of reagent, the time to read-out."}
{"Gene": "Ih (I[[h]] channel)", "amplicon": "DRSC07445", "infection score, replicate 1": 29.5, "cell count, replicate 1": 2643, "Call": "inactive"}
{"Gene": "Ih (I[[h]] channel)", "amplicon": "DRSC24809", "infection score, replicate 1": 3.87, "cell count, replicate 1": 6774, "Call": "inactive"}
{"Gene": "mRpL9 (mitochondrial ribosomal protein L9)", "amplicon": "DRSC15678", "infection score, replicate 1": 10.6, "cell count, replicate 1": 5096, "Call": "inactive"}
{"Gene": "mRpL9 (mitochondrial ribosomal protein L9)", "amplicon": "DRSC27528", "infection score, replicate 1": 20.9, "cell count, replicate 1": 5162, "Call": "inactive"}
{"Gene": "ng4 (new glue 4)", "amplicon": "DRSC18805", "infection score, replicate 1": 2, "cell count, replicate 1": 6434, "Call": "inactive"}
{"Gene": "Dbct (Dihydrolipoamide branched chain transacylase E2)", "amplicon": "DRSC19951", "infection score, replicate 1": 9.02, "cell count, replicate 1": 6321, "Call": "inactive"}
{"Gene": "Dbct (Dihydrolipoamide branched chain transacylase E2)", "amplicon": "DRSC25764", "infection score, replicate 1": 1.4, "cell count, replicate 1": 6715, "Call": "inactive"}
{"Gene": "TfIIFalpha (Transcription factor IIFalpha)", "amplicon": "DRSC12608", "infection score, replicate 1": 30.7, "cell count, replicate 1": 3020, "Call": "inactive"}
{"Gene": "TfIIFalpha (Transcription factor IIFalpha)", "amplicon": "DRSC26379", "infection score, replicate 1": 1.66, "cell count, replicate 1": 5895, "Call": "inactive"}

Look-ups from the list:
Dbct (Dihydrolipoamide branched chain transacylase E2) [DRSC25764], cell count, replicate 1 = 6715
mRpL9 (mitochondrial ribosomal protein L9) [DRSC15678], cell count, replicate 1 = 5096
Result of Dbct (Dihydrolipoamide branched chain transacylase E2) [DRSC19951] under “cell count, replicate 1”: 6321

The list goes on.
{"Gene": "sing (singles bar)", "amplicon": "DRSC19530", "infection score, replicate 1": 4.3, "cell count, replicate 1": 6538, "Call": "inactive"}
{"Gene": "Sirt2 (Sirtuin 2)", "amplicon": "DRSC15714", "infection score, replicate 1": 10.8, "cell count, replicate 1": 4764, "Call": "inactive"}
{"Gene": "Sirt2 (Sirtuin 2)", "amplicon": "DRSC26964", "infection score, replicate 1": 9.52, "cell count, replicate 1": 6804, "Call": "inactive"}
{"Gene": "CG5080", "amplicon": "DRSC00677", "infection score, replicate 1": 2.4, "cell count, replicate 1": 6345, "Call": "inactive"}
{"Gene": "Vps37B (Vacuolar protein sorting 37B)", "amplicon": "DRSC12165", "infection score, replicate 1": 1.26, "cell count, replicate 1": 6449, "Call": "inactive"}
{"Gene": "CG15125", "amplicon": "DRSC06547", "infection score, replicate 1": 0.94, "cell count, replicate 1": 6196, "Call": "inactive"}
{"Gene": "CG7945", "amplicon": "DRSC10934", "infection score, replicate 1": 20.6, "cell count, replicate 1": 5929, "Call": "inactive"}
{"Gene": "Mal-A1 (Maltase A1)", "amplicon": "DRSC07461", "infection score, replicate 1": 9.93, "cell count, replicate 1": 6065, "Call": "inactive"}
{"Gene": "Mal-A1 (Maltase A1)", "amplicon": "DRSC29096", "infection score, replicate 1": 19.7, "cell count, replicate 1": 6089, "Call": "inactive"}
{"Gene": "CG4282", "amplicon": "DRSC06865", "infection score, replicate 1": 7.04, "cell count, replicate 1": 6446, "Call": "inactive"}
{"Gene": "CG13053", "amplicon": "DRSC09934", "infection score, replicate 1": 0.64, "cell count, replicate 1": 6444, "Call": "inactive"}
{"Gene": "RpL34a (Ribosomal protein L34a)", "amplicon": "DRSC15964", "infection score, replicate 1": 17.2, "cell count, replicate 1": 4001, "Call": "inactive"}
{"Gene": "GEFmeso (Guanine nucleotide exchange factor in mesoderm)", "amplicon": "DRSC06748", "infection score, replicate 1": 11.6, "cell count, replicate 1": 6742, "Call": "inactive"}
{"Gene": "GEFmeso (Guanine nucleotide exchange factor in mesoderm)", "amplicon": "DRSC06940", "infection score, replicate 1": 1.94, "cell count, replicate 1": 6039, "Call": "inactive"}
{"Gene": "GEFmeso (Guanine nucleotide exchange factor in mesoderm)", "amplicon": "DRSC21475", "infection score, replicate 1": 3.66, "cell count, replicate 1": 6478, "Call": "inactive"}
{"Gene": "Hsf (Heat shock factor)", "amplicon": "DRSC07443", "infection score, replicate 1": 13.8, "cell count, replicate 1": 5025, "Call": "inactive"}
{"Gene": "Hsf (Heat shock factor)", "amplicon": "DRSC27700", "infection score, replicate 1": 9.18, "cell count, replicate 1": 4552, "Call": "inactive"}
{"Gene": "Syn1 + CG7370", "amplicon": "DRSC22768", "infection score, replicate 1": 1.02, "cell count, replicate 1": 5515, "Call": "inactive"}
{"Gene": "Syn1 + CG7370", "amplicon": "DRSC27632", "infection score, replicate 1": 8.76, "cell count, replicate 1": 5922, "Call": "inactive"}
